Experimental data: PubChem BioAssay AID504761 (Drosophila RNAi Screening Center, 2011)
The screen tested about 22,000 reagents; this is an unselected part of those that have a named target and a result. Of all reagents, 116 (0.52%) got an active call. 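Calls depend on retest data that are not deposited; infection was ranked per plate without normalising between plates; the unit of the infection score is not given.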 The raw values are shown without normalisation. Not stated in the record: the amount of reagent, the time to read-out.

- Aim: 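Insect host genes that dengue virus relies on to spread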 (primary screen)
- Cell system: D.Mel-2 cells from Drosophila
- Reagent: long dsRNA against Drosophila genes
- Challenge: infection with dengue virus type 2; dose and infection time not stated
- Detection: 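Cells stained for dengue envelope protein and imaged; percent of infected cells per well on duplicate plates, ranked by infection, with stained nuclei counted for cell number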
- Direction: infection score: higher = more virus-infected cells; cell count: higher = more cells in the well
- Call rule: 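Very low infection ranking in both replicate wells (chance probability at most 0.065), then a retest showing infection dropped 1.5-fold or more at p below 0.05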
- Meaning of the calls: active = confirmed: knock-down lowers infection; inactive = not picked or not confirmed

For kappaTry [DRSC06146], what was measured?
infection score, replicate 1: 20.7; infection score, replicate 2: 40.4; cell count, replicate 1: 5671; cell count, replicate 2: 5119; Call: inactive

What did the screen give for CG32110 [DRSC09220]?
infection score, replicate 1: 2.79; infection score, replicate 2: 2.87; cell count, replicate 1: 6135; cell count, replicate 2: 5793; Call: inactive

For Cyfip [DRSC15679], how do the results read?
infection score, replicate 1: 35.9; infection score, replicate 2: 35; cell count, replicate 1: 4929; cell count, replicate 2: 5609; Call: inactive

What is on record for CG14743 [DRSC06479]?
infection score, replicate 1: 4.86; infection score, replicate 2: 5.54; cell count, replicate 1: 6744; cell count, replicate 2: 3572; Call: inactive

Which result is listed for melt [DRSC11367]?
infection score, replicate 1: 3.01; infection score, replicate 2: 2.92; cell count, replicate 1: 6472; cell count, replicate 2: 5963; Call: inactive

With CG13062 [DRSC09945], what was measured?
infection score, replicate 1: 4.59; infection score, replicate 2: 6.14; cell count, replicate 1: 5814; cell count, replicate 2: 5800; Call: inactive

Which result is listed for CG13062 [DRSC28840]?
infection score, replicate 1: 14.2; cell count, replicate 1: 2547; cell count, replicate 2: 452; Call: inactive

For Spn28F [DRSC03615], what does the deposit list?
infection score, replicate 1: 3.53; infection score, replicate 2: 16.2; cell count, replicate 1: 6111; cell count, replicate 2: 4436; Call: inactive

For Spn28F [DRSC25759], what does the deposit list?
infection score, replicate 1: 2.8; infection score, replicate 2: 1.14; cell count, replicate 1: 6252; cell count, replicate 2: 6379; Call: inactive

How did the screen score CG42337 [DRSC11686]?
infection score, replicate 1: 11.4; infection score, replicate 2: 11.2; cell count, replicate 1: 5955; cell count, replicate 2: 5358; Call: inactive

What did the screen give for CG42337 [DRSC23099]?
infection score, replicate 1: 1.29; infection score, replicate 2: 5.19; cell count, replicate 1: 6024; cell count, replicate 2: 6776; Call: inactive

Which result is listed for CG42337 [DRSC27038]?
infection score, replicate 1: 5.97; infection score, replicate 2: 4.19; cell count, replicate 1: 6247; cell count, replicate 2: 6442; Call: inactive

With PDCD-5 [DRSC09955], how do the results read?
infection score, replicate 1: 3.88; infection score, replicate 2: 1.36; cell count, replicate 1: 5664; cell count, replicate 2: 5801; Call: inactive

What is on record for br [DRSC17691]?
infection score, replicate 1: 1.21; infection score, replicate 2: 0.31; cell count, replicate 1: 6680; cell count, replicate 2: 6166; Call: inactive

With br [DRSC17789], what does the deposit list?
infection score, replicate 1: 4.06; infection score, replicate 2: 4.05; cell count, replicate 1: 493; cell count, replicate 2: 6932; Call: inactive

What did the screen give for br [DRSC25765]?
infection score, replicate 1: 1.1; infection score, replicate 2: 5.42; cell count, replicate 1: 6631; cell count, replicate 2: 6605; Call: inactive

With vir [DRSC04377], how do the results read?
infection score, replicate 2: 12.6; cell count, replicate 1: 456; cell count, replicate 2: 1255; Call: inactive

For vir [DRSC26525], what does the deposit list?
infection score, replicate 1: 1.48; infection score, replicate 2: 4.56; cell count, replicate 1: 5685; cell count, replicate 2: 5596; Call: inactive

With neb [DRSC03577], what was measured?
infection score, replicate 1: 3.99; infection score, replicate 2: 4.64; cell count, replicate 1: 5988; cell count, replicate 2: 5995; Call: inactive

Which result is listed for neb [DRSC28464]?
infection score, replicate 1: 16.1; infection score, replicate 2: 13.1; cell count, replicate 1: 4803; cell count, replicate 2: 3201; Call: inactive

How did the screen score CG6277 [DRSC16008]?
infection score, replicate 1: 9.1; infection score, replicate 2: 12; cell count, replicate 1: 2318; cell count, replicate 2: 6170; Call: inactive

With CG6277 [DRSC25150], how do the results read?
infection score, replicate 1: 27.6; infection score, replicate 2: 31.6; cell count, replicate 1: 5559; cell count, replicate 2: 5539; Call: inactive

Already shown: 2 of the entries above.
CG42337 [DRSC11686] → infection score, replicate 1: 11.4; infection score, replicate 2: 11.2; cell count, replicate 1: 5955; cell count, replicate 2: 5358; Call: inactive
CG42337 [DRSC23099] → infection score, replicate 1: 1.29; infection score, replicate 2: 5.19; cell count, replicate 1: 6024; cell count, replicate 2: 6776; Call: inactive
